Sequence variants of PSTVd stem 15 after infection

Reference: Wu et al. 2024, doi:10.1371/journal.ppat.1012142.

Region: stem 15 of PSTVd (intermediate strain), upper and lower strand joined, each 5' to 3', the first 9 letters being the upper strand. Wild type: CUGGAGCGAUCGCUUCGG. Varied positions (N): CUGGAGCGAUNGNNUNNG.

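Three N. benthamiana plants were inoculated with the whole mutant pool. Samples came from the inoculated region at 5 days, the leaf margin at 10 and upper systemic leaves at 12.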

Values are reads per thousand in the sample; higher means more abundant, 0 means not found. Each site shows the three plants. "Pool" is the share in the plasmid pool used as inoculum, on the same scale. The inoculated region was read from the minus strand, the other sites from the plus strand. IR is the inoculated region, LM the leaf margin, Sys the systemic leaves. Samples held 36,693 to 63,082 reads, so the smallest values rest on one or two reads. Wild type was 10.2 per thousand in the pool and the most common sequence in every sample (inoculated region 285, 367, 312; leaf margin 785, 865, 782; systemic leaves 854, 898, 915). The authors trace changes outside the varied positions to PCR and sequencing errors or to mutation in the plant; presence does not show that a variant is infectious alone.

sequence	pool	IR	LM	Sys
CUGGAGCGAUCGUUUCAG	0.937	0.352 / 0.272 / 0.186	0.0207 / 0.0273 / 0	0 / 0 / 0
CUGGAGCGAUCGUUUCCG	0.808	0.294 / 0.251 / 0.372	0.0207 / 0.0273 / 0.0159	0 / 0 / 0
CUGGAGCGAUCGUUUCGG	0.921	13.0 / 12.9 / 22.7	11.1 / 6.84 / 55.6	6.04 / 7.18 / 23.2
CUGGAGCGAUCGUUUCUG	0.970	0.254 / 0.398 / 0.465	0.103 / 0.0273 / 0	0 / 0 / 0
CUGGAGCGAUCGUUUGAG	1.62	0.607 / 1.42 / 0.689	0.0827 / 0.0545 / 0.0159	0 / 0 / 0
CUGGAGCGAUCGUUUGCG	0.857	0.372 / 0.272 / 0.391	0 / 0.0273 / 0.0317	0 / 0 / 0
CUGGAGCGAUCGUUUGGG	0.727	0.235 / 0.230 / 0.354	0.0620 / 0.0273 / 0	0 / 0 / 0
CUGGAGCGAUCGUUUGUG	0.840	0.157 / 0.335 / 0.465	0.0207 / 0.0545 / 0.0317	0 / 0 / 0
CUGGAGCGAUCGUUUUAG	0.937	2.09 / 1.24 / 1.58	0.641 / 0 / 0.951	0.832 / 0 / 0
CUGGAGCGAUCGUUUUCG	0.808	0.352 / 0.230 / 0.223	0.103 / 0.0273 / 0.0476	0 / 0 / 0
CUGGAGCGAUCGUUUUGG	0.760	2.09 / 1.28 / 0.316	0.0620 / 0.0273 / 0.0476	0 / 0 / 0
CUGGAGCGAUCGUUUUUG	0.873	0.235 / 0.272 / 0.391	0 / 0.0818 / 0.0317	0 / 0 / 0
CUGGAGCGAUCUACCCGG	0.0646	0 / 0.0209 / 0	0 / 0 / 0	0 / 0 / 0
CUGGAGCGAUCUCUUCGG	0.0646	0.215 / 0.398 / 0.316	0.103 / 0.354 / 0.428	1.05 / 0.532 / 0.419
CUGGAGCGAUGAUUCAGC	1.10	2.52 / 1.65 / 2.42	1.14 / 0.463 / 0.856	0.970 / 0.576 / 0.0199
CUGGAGCGAUGGAAUAAG	0.857	0.157 / 0.188 / 0.335	0.0207 / 0.0273 / 0.0159	0 / 0 / 0
CUGGAGCGAUGGAAUACG	0.760	0.274 / 0.251 / 0.279	0.0207 / 0.0273 / 0.0476	0 / 0 / 0
CUGGAGCGAUGGAAUAGG	0.840	0.313 / 0.356 / 0.205	0 / 0.0273 / 0.0159	0 / 0 / 0
CUGGAGCGAUGGAAUAUG	0.857	0.372 / 0.272 / 0.223	0.0620 / 0.0818 / 0.0159	0 / 0 / 0
CUGGAGCGAUGGAAUCAG	0.889	0.372 / 0.272 / 0.447	0.103 / 0.0273 / 0.0476	0 / 0 / 0
CUGGAGCGAUGGAAUCCG	0.986	0.254 / 0.251 / 0.409	0.103 / 0.0545 / 0.0159	0 / 0 / 0
CUGGAGCGAUGGAAUCGG	0.873	0.294 / 0.188 / 0.279	0.0414 / 0.0273 / 0.0159	0 / 0 / 0
CUGGAGCGAUGGAAUCUG	0.792	0.313 / 0.209 / 0.186	0.103 / 0.0273 / 0.0634	0 / 0 / 0
CUGGAGCGAUGGAAUGAG	1.33	0.509 / 0.754 / 0.614	0.0827 / 0.0273 / 0.0476	0 / 0 / 0
CUGGAGCGAUGGAAUGCG	0.873	0.235 / 0.251 / 0.298	0.0207 / 0 / 0.0317	0 / 0 / 0
CUGGAGCGAUGGAAUGGG	0.857	0.215 / 0.209 / 0.409	0.0620 / 0 / 0.0159	0 / 0 / 0
CUGGAGCGAUGGAAUGUG	0.921	0.274 / 0.147 / 0.205	0.0827 / 0 / 0.0317	0 / 0 / 0
CUGGAGCGAUGGAAUUAG	1.08	0.274 / 0.963 / 0.316	0.0620 / 0.109 / 0	0 / 0 / 0
CUGGAGCGAUGGAAUUCG	0.776	0.294 / 0.293 / 0.428	0.0414 / 0.0273 / 0.0159	0 / 0 / 0
CUGGAGCGAUGGAAUUGG	0.598	0.137 / 0.230 / 0.372	0.0620 / 0 / 0.0159	0 / 0 / 0
CUGGAGCGAUGGAAUUUG	0.889	0.567 / 0.251 / 0.223	0.0827 / 0.0273 / 0.0317	0 / 0 / 0
CUGGAGCGAUGGACUAAG	1.05	1.66 / 1.80 / 0.335	0 / 0.0818 / 0.0317	0 / 0 / 0
CUGGAGCGAUGGACUACG	0.905	0.196 / 0.293 / 0.205	0.0414 / 0.0545 / 0.0159	0 / 0 / 0
CUGGAGCGAUGGACUAGG	1.36	0.587 / 0.503 / 0.707	0.0414 / 0.0545 / 0	0 / 0 / 0.0199
CUGGAGCGAUGGACUAUG	0.905	0.196 / 0.335 / 0.316	0.0414 / 0.0273 / 0	0 / 0 / 0
CUGGAGCGAUGGACUCAG	0.776	0.235 / 0.251 / 0.279	0.0827 / 0 / 0	0 / 0 / 0
CUGGAGCGAUGGACUCCG	0.970	0.215 / 0.188 / 0.261	0 / 0.0818 / 0.0476	0 / 0 / 0
CUGGAGCGAUGGACUCGG	0.905	0.391 / 0.272 / 0.354	0.103 / 0.0545 / 0.0159	0 / 0 / 0
CUGGAGCGAUGGACUCUG	0.792	0.294 / 0.356 / 0.186	0.165 / 0 / 0.0317	0 / 0 / 0
CUGGAGCGAUGGACUGAG	2.89	3.46 / 3.75 / 2.21	0.0414 / 1.96 / 0.0317	0 / 0 / 0
CUGGAGCGAUGGACUGCG	0.889	0.333 / 0.314 / 0.335	0 / 0.0545 / 0.0159	0 / 0 / 0
CUGGAGCGAUGGACUGGG	0.889	0.235 / 0.230 / 0.354	0.0414 / 0.0273 / 0.0159	0 / 0 / 0
CUGGAGCGAUGGACUGUG	1.02	0.294 / 0.272 / 0.335	0.0620 / 0 / 0.0159	0 / 0 / 0
CUGGAGCGAUGGACUUAG	0.889	1.64 / 0.838 / 1.62	0.476 / 0.0273 / 0.793	0 / 0 / 0

The opening 3 entries, copied out:

| sequence | pool | IR | LM | Sys |
|---|---|---|---|---|
| CUGGAGCGAUCGUUUCAG | 0.937 | 0.352 / 0.272 / 0.186 | 0.0207 / 0.0273 / 0 | 0 / 0 / 0 |
| CUGGAGCGAUCGUUUCCG | 0.808 | 0.294 / 0.251 / 0.372 | 0.0207 / 0.0273 / 0.0159 | 0 / 0 / 0 |
| CUGGAGCGAUCGUUUCGG | 0.921 | 13.0 / 12.9 / 22.7 | 11.1 / 6.84 / 55.6 | 6.04 / 7.18 / 23.2 |